Anti-infective test results gathered from many reports (values: NIAID ChemDB through PubChem).

Common to all: growth or infection tests; agent: Hepatitis C virus; read-out: EC50

Rows are shuffled and stem from different studies. ECn is the concentration giving n% inhibition of infection, replication or growth. Two numbers with a dash give a range or band. An empty or dashed field is not shown.

compound,read by,strain,setting,cell line,value
COC(=O)/C=C1\S/C(=N/N=C/c2ccc(Cl)cc2)NC1=O,luciferase / luminescence,1b Con1 (replicon),-,Huh 5-2,18 µM
N#Cc1c(C(=O)Nc2ccccc2)nn(-c2ccc(Cl)cc2)c1-n1cccc1,luciferase / replicon,Con1 (gt 1b),-,Huh 5-2,26.2 µM
Cc1nc2c(s1)CCCn1c-2c(C2CCCCC2)c2ccc(C(=O)O)cc21,replicon,-,-,Huh7,>10 µM
COc1cccc(-c2cc(O[C@@H]3C[C@H]4C(=O)N[C@]5(C(=O)NS(=O)(=O)C6CC6)C[C@H]5/C=C\CCCCN(C)C(=O)[C@@H]4C3)nc(OC)n2)c1,luciferase / reporter gene / replicon,1b,-,-,0.0005–0.199 µM
COc1c(-c2ccc3cc(NS(C)(=O)=O)ccc3c2)cc(-n2ccc(=O)[nH]c2=O)cc1C(C)(C)C,luciferase,genotype 1b Con1,40% human plasma,-,0.021 µM
CCCCCCOc1ccc(N(C(N)=O)c2nc(-c3ccc(F)c(F)c3)cs2)cc1,-,-,-,-,<1 µM
COC(=O)/C=C1\S/C(=N/N=C/c2cccc(OC)c2)NC1=O,luciferase / luminescence,1b Con1 (replicon),-,Huh 5-2,8.28 µM
O=C(O)/C=C/c1ccc(NC(=O)C2(NC(=O)c3ccc4c(c3)nc(-c3ccoc3)n4C3C[C@H]4CC[C@@H]3C4)CCCC2)cc1,-,-,-,Huh7,≤5 µM
Cn1c(=O)cc(Sc2ccc(F)cc2)c2cc(F)ccc21,luciferase / replicon,-,-,Huh-Luc-Neo,1–10 µM
Cc1ccc2nc(Nc3cc(Cl)cc(Br)c3)sc2c1,PCR,Con1,-,Huh7,>200 µM
N#Cc1c(C(=O)Nc2ccc(Cl)cc2)nn(-c2ccc(Cl)cc2)c1-n1cccc1,luciferase / replicon,Con1 (gt 1b),-,Huh 5-2,5.5 µM
COC(=O)/C=C1\S/C(=N/N=C/c2ccc(OCc3ccccc3)cc2)NC1=O,luciferase / luminescence,1b Con1 (replicon),-,Huh 5-2,12.8 µM
O=C(O)/C=C/c1ccc(NC(=O)C2(NC(=O)c3ccc4c(c3)nc(-c3ccsc3)n4C3CCCCC3)CCCC2)cc1,-,-,-,Huh7,≤5 µM
CN1CCCC/C=C\[C@@H]2C[C@@]2(C(=O)NS(=O)(=O)C2CC2)NC(=O)[C@@H]2C[C@@H](Oc3ccnc(-c4ccccc4)n3)C[C@H]2C1=O,luciferase / reporter gene / replicon,1b,-,-,>10 µM
CCCCCOc1ccc(N(C(=O)NC(C)(C)C)c2nc(-c3cccnc3)cs2)cc1C(F)(F)F,-,-,-,-,<1 µM
COC(=O)c1ccc2c(C3CCCCC3)c3n(c2c1)CNc1ccccc1-3,replicon,-,-,Huh7,0.01–1 µM
Cc1ccc2nc(Nc3cccc(Cl)c3)sc2c1,PCR,Con1,-,Huh7,60 µM
CC(NC(=O)c1ccc2c(c1)nc(-c1ccoc1)n2C1CCCCC1)C(=O)Nc1ccc(C(=O)O)cc1,-,-,-,Huh7,5–50 µM
CC(C)N(C(=O)c1ccc(Cl)cc1Cl)c1cc(-c2ccc(-c3cc4nccc(N)n4n3)cc2)sc1C(=O)O,luciferase / replicon,1b,-,-,<0.005 µM
COC(=O)/C=C1\S/C(=N/N=C/c2cc([N+](=O)[O-])ccc2O)NC1=O,luciferase / luminescence,1b Con1 (replicon),-,Huh 5-2,1.94 µM
CC(C)N(C(=O)c1ccc(Cl)cc1Cl)c1cc(-c2ccc(-c3nn[nH]n3)cc2)sc1C(=O)O,luciferase / replicon,1a,-,-,>5 µM
C[C@H](NC(=O)c1ccc2c(c1)nc(-c1ccoc1)n2C1CCCCC1)C(=O)Nc1ccc(/C=C/C(=O)O)cc1,-,-,-,Huh7,5–50 µM
O=C1N[C@H]2C(=O)N[C@H]3C(=O)N[C@H](C(=O)N[C@H](C(=O)O)c4cc(O)cc(O)c4-c4cc3ccc4O)[C@H](O)c3ccc(c(Cl)c3)Oc3cc2cc(c3O)Oc2ccc(cc2Cl)C[C@H]2NC(=O)[C@H](NOC(=O)C34CC5CC(CC(C5)C3)C4)c3ccc(O)c(c3)Oc3cc(O)cc(c3)[C@@H]1NC2=O,luciferase,HCVcc,-,-,5.7 µM
CC1(C)CC(=O)C2=C(C1)Nc1c(O)cccc1NC2c1ccc(C#N)cc1Cl,luciferase / reporter gene / replicon,1b,-,-,28.19 µM
CCCCOc1ccc(N(C(N)=O)c2nc(-c3ccc(C)nc3)cs2)cc1C(F)(F)F,-,-,-,-,<1 µM
CN1CCCC/C=C\[C@@H]2C[C@@]2(C(=O)NS(=O)(=O)C2CC2)NC(=O)[C@@H]2C[C@@H](Oc3cc(-c4ccccc4)nc(-c4ccccc4)n3)C[C@H]2C1=O,luciferase / reporter gene / replicon,1b,-,-,0.2–0.99 µM
Cn1c(=O)cc(Sc2ccccc2F)c2ccccc21,luciferase / replicon,-,-,Huh-Luc-Neo,1–10 µM
COc1ccc(Nc2nc3ccc(C)cc3s2)c(OC)c1OC,PCR,Con1,-,Huh7,50 µM
COC(=O)/C=C1\S/C(=N/N=C/c2ccc(N(C)C)cc2)NC1=O,luciferase / luminescence,1b Con1 (replicon),-,Huh 5-2,14.4 µM
Cc1cc(OCc2ccccc2)ccc1C1Nc2cccc(O)c2NC2=C1C(=O)CC(C)(C)C2,luciferase / reporter gene / replicon,1b,-,-,1.4 µM
COc1ccc(-c2cc(O[C@@H]3C[C@H]4C(=O)N[C@]5(C(=O)NS(=O)(=O)C6CC6)C[C@H]5/C=C\CCCCN(C)C(=O)[C@@H]4C3)nc(OC)n2)cc1,luciferase / reporter gene / replicon,1b,-,-,0.2–0.99 µM
CCCCCOc1ccc(N(C)c2nc(C(=O)O)cs2)cc1C(F)(F)F,-,-,-,-,<1 µM
CC(C)N(C(=O)c1ccc(Cl)cc1Cl)c1cc(-c2ccc(-c3cc4ncccn4n3)cc2)sc1C(=O)O,replicon / ELISA,1a,-,-,0.05–0.1 µM
O=C(O)/C=C/c1ccc(NC(=O)C2(NC(=O)c3ccc4c(c3)nc(-c3cccs3)n4C3C[C@H]4CC[C@@H]3C4)CCCC2)cc1,-,-,-,Huh7,≤5 µM
COC(=O)c1ccc2c(C3CCCCC3)c3n(c2c1)CC(C(=O)N1CCOCC1)=Cc1cc(OC)ccc1-3,replicon,-,-,Huh7,0.01–1 µM
CCCCCCCCOc1ccc(N(C(N)=O)c2nc(-c3ccc(F)cc3)cs2)cc1,-,-,-,-,<1 µM
CC(=O)N1c2cccc(O)c2NC2=C(C(=O)CC(C)(C)C2)[C@@H]1c1ccc(OCc2ccccc2)c(Cl)c1,luciferase / reporter gene / replicon,1b,-,-,0.9 µM
CCCCCOc1ccc(N(C(C)=O)c2nc(-c3ccc(F)cc3)cs2)cc1C(F)(F)F,-,-,-,-,<1 µM
CC(NC(=O)c1ccc2c(c1)nc(-c1ccoc1)n2C1CCCCC1)C(=O)Nc1cccc(-c2cccc(N)c2)c1,-,-,-,Huh7,5–50 µM
CC(C)Nc1nccc(O[C@@H]2C[C@H]3C(=O)N[C@]4(C(=O)NS(=O)(=O)C5CC5)C[C@H]4/C=C\CCCCN(C)C(=O)[C@@H]3C2)n1,luciferase / reporter gene / replicon,1b,-,-,>10 µM
COC(=O)/C=C1\S/C(=N/N=C/c2cccc(Br)c2)NC1=O,luciferase / luminescence,1b Con1 (replicon),-,Huh 5-2,2.95 µM
CC(=O)N1c2cccc(O)c2NC2=C(C(=O)CC(C)(C)C2)C1c1ccc(S(C)(=O)=O)cc1Cl,luciferase / reporter gene / replicon,1b,-,-,>100 µM
COc1nc(O[C@@H]2C[C@H]3C(=O)N[C@]4(C(=O)NS(=O)(=O)C5CC5)C[C@H]4/C=C\CCCCN(C)C(=O)N3C2)cc(-c2ccccc2)n1,luciferase / reporter gene / replicon,1b,-,-,1–10 µM
COc1cccc(Nc2nc3ccc(C)cc3s2)c1,PCR,Con1,-,Huh7,>200 µM
N#Cc1c(C(=O)Nc2ccc(Cl)cc2)nn(-c2ccccc2)c1-n1cccc1,luciferase / replicon,Con1 (gt 1b),-,Huh 5-2,7.8 µM
CC(=O)N1c2cccc(O)c2NC2=C(C(=O)CC(C)(C)C2)C1c1cccc(Cl)c1,luciferase / reporter gene / replicon,1b,-,-,4.97 µM
COc1nc(O[C@@H]2C[C@H]3C(=O)N[C@]4(C(=O)NS(=O)(=O)C5CC5)C[C@H]4/C=C\CCCCN(C)C(=O)[C@@H]3C2)cc(C(C)(C)C)n1,luciferase / reporter gene / replicon,1b,-,-,1–10 µM
Cc1cc2c(Sc3ccc(F)cc3)cc(=O)n(C)c2cc1C,luciferase / replicon,-,-,Huh-Luc-Neo,<1 µM
COc1cccc(-c2cc(O[C@@H]3C[C@H]4C(=O)N[C@]5(C(=O)NS(=O)(=O)C6(C)CC6)C[C@H]5/C=C\CCCCN(C)C(=O)[C@@H]4C3)nc(OC)n2)c1,luciferase / reporter gene / replicon,1b,-,-,0.0005–0.199 µM
O=C(NC1(C(=O)Nc2ccc3[nH]c(=S)sc3c2)CCCC1)c1ccc2c(c1)nc(-c1ccoc1)n2C1CCCCC1,-,-,-,Huh7,≤5 µM
Cc1c(C(=O)Nc2ccc(Cl)cc2)nn(-c2ccc(Cl)cc2)c1-n1cccc1,luciferase / replicon,Con1 (gt 1b),-,Huh 5-2,13.6 µM
O=C(NS(=O)(=O)c1ccccc1)c1ccc2c(C3CCCCC3)c3n(c2c1)CCCc1ncccc1-3,replicon,-,-,Huh7,1–10 µM
COCCN(C(=O)c1ccc(Cl)cc1F)c1cc(-c2ccc(-c3cc4ncccn4n3)cc2)sc1C(=O)O,luciferase / replicon,1b,-,-,0.005–0.01 µM
C[C@H]1CCC[C@H](C)C1n1c(-c2ccccn2)nc2cc(C(=O)NC3(C(=O)Nc4ccc(/C=C/C(=O)O)cc4)CCCC3)ccc21,-,-,-,Huh7,≤5 µM
CC(=O)Nc1ccc(Sc2cc(=O)n(C)c3ccccc23)cc1,luciferase / replicon,-,-,Huh-Luc-Neo,1–10 µM
C[C@@H](NC(=O)c1ccc2c(c1)nc(-c1ccc[nH]1)n2C1CCCCC1)C(=O)Nc1ccc(/C=C/C(=O)O)cc1,-,-,-,Huh7,5–50 µM
CC1(C)CC(=O)C2=C(C1)Nc1c(O)cccc1N(C(=O)c1cscn1)C2c1ccc(OCc2ccc(F)cc2)cc1F,luciferase / reporter gene / replicon,1b,-,-,12.1 µM
COCC(C)N(C(=O)c1ccc(Cl)cc1Cl)c1cc(-c2ccccc2)sc1C(=O)O,replicon / ELISA,1a,-,-,1–5 µM

A second listing of 8 rows from above:

{"compound": "Cc1ccc2nc(Nc3cccc(Cl)c3)sc2c1", "read by": "PCR", "strain": "Con1", "cell line": "Huh7", "value": "60 µM"}
{"compound": "Cn1c(=O)cc(Sc2ccc(F)cc2)c2cc(F)ccc21", "read by": "luciferase / replicon", "cell line": "Huh-Luc-Neo", "value": "1–10 µM"}
{"compound": "CC(NC(=O)c1ccc2c(c1)nc(-c1ccoc1)n2C1CCCCC1)C(=O)Nc1cccc(-c2cccc(N)c2)c1", "cell line": "Huh7", "value": "5–50 µM"}
{"compound": "O=C(O)/C=C/c1ccc(NC(=O)C2(NC(=O)c3ccc4c(c3)nc(-c3ccsc3)n4C3CCCCC3)CCCC2)cc1", "cell line": "Huh7", "value": "≤5 µM"}
{"compound": "COC(=O)/C=C1\\S/C(=N/N=C/c2cccc(OC)c2)NC1=O", "read by": "luciferase / luminescence", "strain": "1b Con1 (replicon)", "cell line": "Huh 5-2", "value": "8.28 µM"}
{"compound": "COc1ccc(Nc2nc3ccc(C)cc3s2)c(OC)c1OC", "read by": "PCR", "strain": "Con1", "cell line": "Huh7", "value": "50 µM"}
{"compound": "C[C@H](NC(=O)c1ccc2c(c1)nc(-c1ccoc1)n2C1CCCCC1)C(=O)Nc1ccc(/C=C/C(=O)O)cc1", "cell line": "Huh7", "value": "5–50 µM"}
{"compound": "CC1(C)CC(=O)C2=C(C1)Nc1c(O)cccc1N(C(=O)c1cscn1)C2c1ccc(OCc2ccc(F)cc2)cc1F", "read by": "luciferase / reporter gene / replicon", "strain": "1b", "value": "12.1 µM"}